A mixed list of measured activities; the numbers were collected in NIAID ChemDB.

Common to all: whole-cell or culture tests; agent: HIV-1; cells: MT-4; endpoint: EC50

An empty or dashed field is not shown. ECn is the concentration giving n% inhibition of infection, replication or growth. Conditions beyond the fields shown may differ between rows.

smiles,strain,mutations,read by,conditions,result
CSC(=NCc1ccccc1)Nn1c(C)nc2ccccc2c1=O,IIIB,,MTT,,50.32 µg/mL
C=C1CN(S(=O)(=O)c2ccc(C)cc2)CCCN(C(C)=O)CCCN(S(=O)(=O)c2ccc(C)cc2)C1,NL4-3,,p24,,>75 µM
FC(F)(F)c1cccc(NC(=S)NCc2ccco2)c1,IIIB,,MTT,,>44.7 µM
O=C(NCCCCCCN1CCC[C@H]2C[C@@H]3C[C@@H](CN4CCCC[C@H]34)[C@@H]21)c1c(F)cc(Br)cc1F,NL4-3,,luciferase,,>20 µM
O=C1Nc2ccc(Cl)cc2[C@@](C#CC2CC2)(C(F)(F)F)O1,IIIB,,MTT,,>46 µM
C=C1CN(S(=O)(=O)c2ccc(C)cc2)CCCN(C(=O)OCC)CCCN(S(=O)(=O)c2ccc(C)cc2)C1,NL4-3,,p24,,27.15 µM
CCc1c(Cc2cc(C)cc(C)c2)n(COCC#CC#CCO)c(=O)[nH]c1=O,IIIB,K103N + Y181C,MTT,,1.7 µM
Fc1ccccc1NC(=S)NC1CCN(Cc2ccccc2)CC1,IIIB,,MTT,,>95 µM
C=C1CN(S(=O)(=O)c2ccc(C)cc2)CCCN(CC2CCCCC2)CCCN(S(=O)(=O)c2ccc(C)cc2)C1,NL4-3,,p24,,0.29 µM
CCc1c(Cc2cc(C)cc(C)c2)n(COCC#Cc2ccc(O)cc2)c(=O)[nH]c1=O,IIIB,WT,MTT,,0.008 µM
C=C1CN(S(=O)(=O)c2ccc(Br)cc2)CCCN(Cc2ccccc2)CCCN(S(=O)(=O)c2ccc(Br)cc2)C1,NL4-3,,p24,,1.84 µM
CCO/C(CC(=O)NCc1ccc(OC)cc1)=N\Nc1ccccc1[N+](=O)[O-],IIIB,,MTT,,>30.68 µM
CSC(=Nc1ccc(Cl)cc1)Nn1c(C)nc2ccccc2c1=O,IIIB,,MTT,,1.93 µg/mL
Cc1ccc(S(=O)(=O)N2CCCN(Cc3ccccc3)CCCN(S(=O)(=O)c3ccc(C)cc3)CC(CO)C2)cc1,NL4-3,,p24,,7.31 µM
c1ccc(CNCCc2ccc(CN3CCNCCCCCCCNCC3)cc2)nc1,NL4-3,,p24,,0.032 µg/mL
CCc1c(Cc2cc(C)cc(C)c2)n(COCC#Cc2cccs2)c(=O)[nH]c1=O,IIIB,WT,MTT,,0.008 µM
S=C(NCc1ccco1)Nc1cccc(Br)c1,IIIB,,MTT,,>38.2 µM
O=C(NCCCCCCN1CCC[C@@H]2C[C@@H]3C[C@@H](CN4CCCC[C@H]34)[C@@H]21)c1c(F)cc(Br)cc1F,NL4-3,,luciferase,,>20 µM
O=c1[nH]c(=O)n(COCc2ccccc2)c2c1COC2c1ccccc1,IIIB,,cytopathic effect / MTT,,10 µM
O=C(NCCCCCN1CCCC2=C[C@@H]3C[C@@H](CN4CCCC[C@H]34)[C@@H]21)c1ccc(OC(F)(F)F)cc1,NL4-3,,luciferase,,0.98 µM
CN=C(Nn1c(C)nc2ccccc2c1=O)SC,IIIB,,MTT,,100 µg/mL
CCOCn1c2c(c(=O)[nH]c1=O)COC2c1ccccc1,IIIB,,cytopathic effect / MTT,,32 µM
CN1C(=O)[C@@H](c2cc(Cl)c(O)c(Cl)c2)NC(=O)[C@@H]2NC(=O)[C@H](c3cc(Cl)c(O)c(Cl)c3)NC(=O)[C@@H](NC(=O)C(=O)c3cc(Cl)c(O)c(Cl)c3)Cc3c[nH]c4cc(ccc34)-c3cc2cc(c3O)Oc2ccc(cc2)C[C@H]1C(=O)N[C@@H](C(=O)O)c1ccc(O)cc1,,,cytopathic effect / MTT,,3 µg/mL
CC(C)(C)[Si](C)(C)OC[C@H]1O[C@@H](n2ccc(=O)[nH]c2=O)[C@H](O[Si](C)(C)C(C)(C)C)C12OS(=O)(=O)C=C2N,IIIB,,cytopathic effect / trypan blue,,>1.6 µg/mL
CC(C)[C@H](C)CC[C@](C)(O)[C@H]1C(=O)C[C@H]2[C@@H]3C(=O)C=C4C[C@@H](O)CC[C@]4(C)[C@H]3CC[C@@]21C,NL4-3,IN E92Q INI-resistant,MTT,,0.1029 µM
O=C(NCCCCCCN1CCC[C@H]2C[C@@H]3C[C@@H](CN4CCCC[C@H]34)[C@@H]21)c1ccc(OC(F)(F)F)cc1,NL4-3,,luciferase,,>20 µM
CSC(=Nc1ccccc1)Nn1c(C)nc2ccccc2c1=O,IIIB,,MTT,,57.26 µg/mL
Fc1cccc(NC(=S)NC2CCN(Cc3ccccc3)CC2)c1,IIIB,,MTT,,>32 µM
O=C(NCCCN1CCCC2=C[C@@H]3C[C@@H](CN4CCCC[C@H]34)[C@@H]21)c1c(F)cc(Br)cc1F,NL4-3,,luciferase,,>20 µM
CSC(=Nc1cccc(Cl)c1)Nn1c(C)nc2ccccc2c1=O,IIIB,,MTT,,1.17 µg/mL
C=C1CN(S(=O)(=O)c2ccc(C)cc2)CCCN(CCC)CCCN(S(=O)(=O)c2ccc(C)cc2)C1,NL4-3,,p24,,2.39 µM
CC(=O)N1C2CCC(C2)N2C(=O)c3c(O)c(=O)c(C(=O)NCc4ccc(F)cc4F)cn3CC12,NL4-3,,GFP,100% human serum,0.037 µM
CCc1c(Cc2cc(C)cc(C)c2)n(COCC#Cc2ccc(CO)cc2)c(=O)[nH]c1=O,IIIB,EFV-resistant (K103R V179D P225H),MTT,,10 µM
C=C1CN(S(=O)(=O)c2ccc(COCCCC)cc2)CCCN(Cc2ccccc2)CCCN(S(=O)(=O)c2ccc(COCCCC)cc2)C1,NL4-3,,p24,,>15 µM
O=C(NCCCCCCN1CCCC2=C[C@@H]3C[C@@H](CN4CCCC[C@H]34)[C@@H]21)c1ccc(Br)c(C(F)(F)F)c1,NL4-3,,luciferase,,>20 µM

A second listing of 4 rows from above:

smiles,strain,mutations,read by,conditions,result
CC(C)[C@H](C)CC[C@](C)(O)[C@H]1C(=O)C[C@H]2[C@@H]3C(=O)C=C4C[C@@H](O)CC[C@]4(C)[C@H]3CC[C@@]21C,NL4-3,IN E92Q INI-resistant,MTT,,0.1029 µM
CSC(=NCc1ccccc1)Nn1c(C)nc2ccccc2c1=O,IIIB,,MTT,,50.32 µg/mL
C=C1CN(S(=O)(=O)c2ccc(C)cc2)CCCN(CC2CCCCC2)CCCN(S(=O)(=O)c2ccc(C)cc2)C1,NL4-3,,p24,,0.29 µM
CCc1c(Cc2cc(C)cc(C)c2)n(COCC#Cc2ccc(O)cc2)c(=O)[nH]c1=O,IIIB,WT,MTT,,0.008 µM